Our source for the Ki values is ChEMBL document CHEMBL1250431, “Morphinans and isoquinolines: acetylcholinesterase inhibition, pharmacophore modeling, and interaction with opioid receptors” (Bioorg Med Chem, 2010).

Protein sequences, listed by entry. Tags and fused reporters are not part of them.
UniProt P41144, whole entry: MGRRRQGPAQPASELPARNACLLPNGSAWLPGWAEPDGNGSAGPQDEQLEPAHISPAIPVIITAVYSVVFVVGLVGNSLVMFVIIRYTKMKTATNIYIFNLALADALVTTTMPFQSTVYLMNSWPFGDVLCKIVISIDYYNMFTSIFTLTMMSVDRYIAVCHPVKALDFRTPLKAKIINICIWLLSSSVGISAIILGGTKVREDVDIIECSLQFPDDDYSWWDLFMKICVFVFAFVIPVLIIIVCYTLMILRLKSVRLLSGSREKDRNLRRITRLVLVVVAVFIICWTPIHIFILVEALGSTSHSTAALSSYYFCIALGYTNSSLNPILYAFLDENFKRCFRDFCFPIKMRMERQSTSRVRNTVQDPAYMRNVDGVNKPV

This assay deals with Kappa-type opioid receptor (Cavia porcellus, UniProt P41144). In words: Displacement of [3H]U69593 from kappa opioid receptor in guinea pig brain membrane. Format: cell membranes.

The structures appear in SMILES notation.

The compound `CO[C@@]12CCC(=O)[C@@H]3Oc4c(O)ccc5c4[C@@]31CCN(C)[C@@H]2C5` displayed a Ki of 2660 nM.
